The source of these data is US9765069B2, “Antimicrobial compounds” (OXFORD UNIVERSITY INNOVATION LIMITED, priority 2012, dated 2017).

This data set relates to Hek293 / PMBC versus S. aureus 2, MRSA in vivo. The experiment in a line: Selectivity index (LD50 Hek293/PMBC divided by MIC S. aureus 2). Type of data set: cell-based. The following applies: lower LD50 of Hek293 and PMBC (converted to μg/mL) divided by MIC against S. aureus 2, MRSA in vivo.

As to `CCCCCCCC(O)=C1C(=O)C(CCSC)N(C(=O)CC(C)CC(C)(C)C)C1=O` (stereo not shown) [24j], the “SI (Selectivity index)” value is less than 8.9. As for `CSCCC1C(=O)C(=C(O)CC23CC4CC(C)(CC(C)(C4)C2)C3)C(=O)N1C(C)=O` (stereo not shown) [31e], the figure is 3.2. In the case of `CC(C)CC1C(=O)C(=C(O)CCCCCc2ccccc2)C(=O)N1C(=O)c1ccccc1` (stereo not shown) [30a], the “SI (Selectivity index)” value amounted to 19. As for `CCCCCCCCCCCCC/C(O)=C1\C(=O)[C@@H]2CCCC(=O)N2C1=O` [22b], the figure is 8.6.

Consider `CCCCCCCC=CC(=O)N1C(=O)C(=C(C)O)C(=O)C1CC(C)C` (stereo not shown) [23a], for which the “SI (Selectivity index)” value came to 4.0. Turning to `CCCCCCC(=O)N1CC(=O)C(=C(O)CC23CC4CC(CC(C4)C2)C3)C1=O` [27i], the “SI (Selectivity index)” value is listed as less than 16. With `CCCCCCC(=O)N1CC(=O)C(=C(O)CCCOc2ccc(Cl)cc2C)C1=O` [28h] the figure was 6.4; with `CCCCCCCC=CC(=O)N1C(=O)C(=C(O)CCCCC)C(=O)C1CC(C)C` (stereo not shown) [23c], 25. As for `CCCCCCC(=O)N1CC(=O)C(=C(O)CCCC2CCCCC2)C1=O` [27c], the figure is 11; as for `CCCCCCC(=O)N1CC(=O)C(=C(O)CC(C)CC(C)(C)C)C1=O` (stereo not shown) [27h], 21. With `CCCCCCCCCC(O)=C1C(=O)CCN(C(=O)c2ccccc2)C1=O` [25a], the “SI (Selectivity index)” value was more than 8.4. With `CCCCCC(O)=C1C(=O)C(CCSC)N(C(=O)CC(C)CC(C)(C)C)C1=O` (stereo not shown) [24i] the figure was less than 8.3; with `CCCCCCCCCCCC(O)=C1C(=O)CCN(C(=O)c2ccccc2)C1=O` [25b], more than 73; with `CCCCCCCCCCCC(O)=C1C(=O)C(CCSC)N(C(C)=O)C1=O` (stereo not shown) [24b], 12. With `CCCCCCCCCC(O)=C1C(=O)C(CCSC)N(C(=O)Cc2cccs2)C1=O` (stereo not shown) [24m] the figure was 6.9; with `CCCCCCCCCC(O)=C1C(=O)CCN(C(=O)c2ccc(OC)cc2)C1=O` [25d], 9.1. Turning to `CCCCCCCC(O)=C1C(=O)C(CCSC)N(C(=O)C2CCCCC2)C1=O` (stereo not shown) [24e], the “SI (Selectivity index)” value is more than 75.

For `CCCCCCCCCC(O)=C1C(=O)C(CCSC)N(C(=O)CC(C)CC(C)(C)C)C1=O` (stereo not shown) [24k], the “SI (Selectivity index)” value is less than 9.5. As for `CCCCCCCC=CC(=O)N1C(=O)C(=C(O)CCC)C(=O)C1CC(C)C` (stereo not shown) [23b], the figure is 137; as for `CCCC(=O)N1CC(=O)C(=C(O)CC23CC4CC(C)(CC(C)(C4)C2)C3)C1=O` [27k], 5.7. As to `CSCCC1C(=O)C(=C(O)CC23CC4CC(CC(C4)C2)C3)C(=O)N1C(=O)C1CCCCC1` (stereo not shown) [31f], the “SI (Selectivity index)” value stood at 21. In the case of `CCCCCCC(=O)N1CC(=O)C(=C(O)CC2CC3CCC2C3)C1=O` (stereo not shown) [27a], the “SI (Selectivity index)” value stood at 16.
